Anti-infective test results gathered from many reports (values: NIAID ChemDB through PubChem).

All rows: growth or infection tests; species: Influenza A virus; cell line: MDCK; method: plaque count; endpoint: EC50

Conditions beyond the fields shown may differ between rows. Blank or dashed fields: not listed here. Two numbers with a dash give a range or band. ECn: concentration that inhibits the pathogen or its effect by n%.

SMILES	strain or isolate	result
Nc1nc2c(ncn2[C@@H]2O[C@H](CO)[C@@H](O)[C@H]2F)c(=O)[nH]1	H3N2 A/HONG KONG/1/68	10 µM
Nc1nc(Cl)c(N)c(NCC2(CO)CCC2)n1	H1N1 A/PR/8/34	35–43 µM
CCCCCCCNC(=O)O[C@@H]([C@@H]1OC(C(=O)O)=C[C@H](N)[C@H]1NC(=O)O)[C@H](C)CO	H3N2 AICHI	1.8 µg/mL
O=C(N[C@@H]1CCC23CCC2N(Cc2ccccc2)C3C1)c1cc(Cl)ccc1O	H1N1 A/WSN/33 (H1N1)	>50 µg/mL
C[C@@H]1C2CCCC(C2NCc2ccccc2)[C@@H]1C	-	>100 µM
C[C@H](CO)[C@@H](OC(N)=O)[C@@H]1OC(C(=O)O)=C[C@H](N)[C@H]1NC(=O)O	H3N2 AICHI	0.47 µg/mL
O=C(NCCN1CCC[C@@H]2CCCC[C@@H]21)c1cc(Cl)ccc1O	H1N1 A/WSN/33 (H1N1)	1.4 µg/mL
CCC(CC)O[C@@H]1C=C(C(=O)O)C[C@H](N)[C@H]1NC(C)=O	Influenza A/Johannesburg/33/94 (H3N2)	0.04 µM
COc1ncc2ncn([C@@H]3O[C@H](CO)[C@@H](O)[C@H]3F)c2n1	A/Sweden	>100 µM
O=C(NCCCN1CCC[C@@H]2CCCC[C@@H]21)c1cc(Cl)ccc1O	H1N1 A/WSN/33 (H1N1)	>50 µg/mL
C[C@H](CO)[C@@H](OC(=O)NCCO[C@@H]1O[C@@H](CO)[C@H](O)[C@@H](O)[C@H]1O)[C@@H]1OC(C(=O)O)=C[C@H](N=C(N)N)[C@H]1NC(=O)O	H3N2 AICHI	<0.1 µg/mL
Cc1ccc(O)c(C(=O)N[C@H]2CCC34CCC3N(C)C4C2)c1	H1N1 A/WSN/33 (H1N1)	>50 µg/mL
C[C@H](CO)[C@@H](OC(=O)N1CCNCC1)[C@@H]1OC(C(=O)O)=C[C@H](N=C(N)N)[C@H]1NC(=O)O	H3N2 AICHI	0.031 µg/mL
CC1=C(C)C2C(N)C1[C@H](C(C)C)C[C@H]2C	-	53 µM
CC(C)C1CC(CO)(CNc2cc(Cl)nc(N)n2)C1	H1N1 A/PR/8/34	2.1–9.8 µM
CCC(CC)O[C@@H]1C=C(C(=O)O)C[C@H](N)[C@H]1NC(C)=O	Influenza A H3N2 isolate C26C	5.1 µg/mL
CC1=C(C)C2C(N)C1CCC2(C)C	-	>20 µM
O=C(N[C@H]1CCC23CCC2N(Cc2ccccc2)C3C1)c1cc(Cl)ccc1O	H1N1 A/WSN/33 (H1N1)	>50 µg/mL
CCNC1C2CCCC1(C)[C@@H](C)[C@H]2C	-	15.1 µM
Nc1nc(Cl)cc(NCC2(CO)COC2)n1	H1N1 A/PR/8/34	>410 µM
NC1C2CCCC1CC2	-	30.1 µM
Nc1nc(Cl)cc(NCCC2(CO)CCC2)n1	H1N1 A/PR/8/34	>120 µM
CC(C)[C@H]1CCC2C(N)C1[C@@H](C)[C@H]2C	-	33 µM
CCC(C)N1C2CCC23CC[C@@H](NC(=O)c2cc(Cl)ccc2O)CC13	H1N1 A/WSN/33 (H1N1)	>50 µg/mL
N#CNc1nncs1	A/HONG KONG/8/68	1.16 µg/mL
CCC1=C(CC)C2(C)CC[C@@H](C(C)C)C1C2N	-	>20 µM

Repeating the final 2 entries:

SMILES	strain or isolate	result
N#CNc1nncs1	A/HONG KONG/8/68	1.16 µg/mL
CCC1=C(CC)C2(C)CC[C@@H](C(C)C)C1C2N	-	>20 µM